Experimental findings from US20130316951A1 are described below.

For this test, the target named is T1, platelet glycoprotein (GP) IIb/IIIa on platelets of mouse platelet rich plasma (mouse), Q9QUM0.
T1 chain 1: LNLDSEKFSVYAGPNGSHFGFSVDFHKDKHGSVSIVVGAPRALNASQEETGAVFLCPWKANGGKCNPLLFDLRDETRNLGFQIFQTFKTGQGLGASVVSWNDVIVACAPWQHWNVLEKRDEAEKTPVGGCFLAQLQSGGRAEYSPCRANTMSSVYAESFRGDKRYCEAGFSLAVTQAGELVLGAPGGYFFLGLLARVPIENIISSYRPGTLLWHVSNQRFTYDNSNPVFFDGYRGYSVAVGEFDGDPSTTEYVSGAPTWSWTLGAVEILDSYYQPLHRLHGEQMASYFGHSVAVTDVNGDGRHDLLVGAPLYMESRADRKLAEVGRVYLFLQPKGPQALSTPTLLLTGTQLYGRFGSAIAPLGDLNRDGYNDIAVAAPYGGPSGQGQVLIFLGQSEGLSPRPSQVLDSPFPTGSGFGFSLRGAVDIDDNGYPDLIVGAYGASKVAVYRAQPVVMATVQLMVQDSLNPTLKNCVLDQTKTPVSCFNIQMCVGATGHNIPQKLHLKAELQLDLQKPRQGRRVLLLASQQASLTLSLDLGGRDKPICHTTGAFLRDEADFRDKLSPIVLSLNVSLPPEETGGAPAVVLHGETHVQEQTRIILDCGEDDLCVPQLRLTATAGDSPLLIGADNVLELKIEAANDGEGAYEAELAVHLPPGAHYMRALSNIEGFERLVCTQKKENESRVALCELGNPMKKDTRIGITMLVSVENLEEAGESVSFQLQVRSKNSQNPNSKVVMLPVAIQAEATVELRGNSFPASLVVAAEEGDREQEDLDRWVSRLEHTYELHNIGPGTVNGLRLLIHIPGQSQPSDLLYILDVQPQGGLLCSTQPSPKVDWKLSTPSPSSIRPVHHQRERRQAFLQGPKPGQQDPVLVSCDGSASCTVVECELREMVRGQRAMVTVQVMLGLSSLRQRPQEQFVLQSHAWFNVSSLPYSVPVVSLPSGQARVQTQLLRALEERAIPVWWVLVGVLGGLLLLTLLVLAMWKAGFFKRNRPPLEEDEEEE
T1 chain 2: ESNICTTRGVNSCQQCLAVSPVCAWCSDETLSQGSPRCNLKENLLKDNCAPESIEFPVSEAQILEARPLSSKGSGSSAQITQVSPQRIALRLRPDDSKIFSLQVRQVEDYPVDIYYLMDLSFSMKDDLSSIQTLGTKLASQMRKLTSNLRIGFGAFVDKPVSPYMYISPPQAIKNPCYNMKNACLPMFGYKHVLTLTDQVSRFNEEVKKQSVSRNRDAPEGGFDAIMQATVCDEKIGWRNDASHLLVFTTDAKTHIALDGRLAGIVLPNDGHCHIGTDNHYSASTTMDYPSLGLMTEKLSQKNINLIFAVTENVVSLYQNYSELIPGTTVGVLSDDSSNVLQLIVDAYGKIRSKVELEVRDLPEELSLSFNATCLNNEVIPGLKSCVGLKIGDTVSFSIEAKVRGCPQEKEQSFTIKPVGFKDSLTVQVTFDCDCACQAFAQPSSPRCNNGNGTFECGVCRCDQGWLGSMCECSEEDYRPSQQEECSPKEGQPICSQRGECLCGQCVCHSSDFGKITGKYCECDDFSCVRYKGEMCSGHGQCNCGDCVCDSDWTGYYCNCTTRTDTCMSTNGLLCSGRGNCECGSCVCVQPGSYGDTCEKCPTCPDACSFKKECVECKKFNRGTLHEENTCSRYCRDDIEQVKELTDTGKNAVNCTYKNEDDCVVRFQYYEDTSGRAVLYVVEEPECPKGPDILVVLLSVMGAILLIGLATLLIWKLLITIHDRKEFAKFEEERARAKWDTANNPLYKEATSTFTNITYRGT
The test is described as follows: cell-based or functional assay.

B1: saxatilin derivative XL3 (peptide)
chain: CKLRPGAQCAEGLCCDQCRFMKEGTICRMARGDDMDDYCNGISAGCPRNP
modifications: not checked
B1 returned an IC50 of inhibition of ADP-induced platelet aggregation, mouse PRP, aggregometer of 1060 nM.

B2: saxatilin derivative XL1 (peptide)
chain: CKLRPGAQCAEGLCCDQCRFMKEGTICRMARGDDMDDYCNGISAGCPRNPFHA
modifications: not checked
Consider B2, for which the IC50 of inhibition of ADP-induced platelet aggregation, mouse PRP, aggregometer is 1010 nM.

B3: saxatilin derivative LS3 (peptide)
chain: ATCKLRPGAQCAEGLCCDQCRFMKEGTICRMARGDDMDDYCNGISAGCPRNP
modifications: not checked
In turn, B3 displayed an IC50 of inhibition of ADP-induced platelet aggregation, mouse PRP, aggregometer of 1000 nM.

B4: saxatilin derivative LS2 (peptide)
chain: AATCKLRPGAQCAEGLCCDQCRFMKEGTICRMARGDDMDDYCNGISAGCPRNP
modifications: not checked
Regarding B4, the IC50 of inhibition of ADP-induced platelet aggregation, mouse PRP, aggregometer was 1010 nM.
